Assay results taken from US20250082761A1, “DUAL-TARGETED RNA POLYMERASE INHIBITORS: CONJUGATES OF BENZOXAZINO- AND SPIRO-RIFAMYCINS WITH N ALPHA-AROYL-N-ARYL-[…]” (priority 2021, published 2025).

What was measured:
Assay type in all cases: cell-based, Mycobacterium tuberculosis
[1] = test system: rifampin-resistant M. tuberculosis 10571 (rpoB-D′516′V); assay: Microplate Alamar Blue MIC assay, isolate 10571; conditions: isolate 10571, rpoB-D′516′V
[2] = test system: rifampin-resistant M. tuberculosis 4457 (rpoB-H′526′Y); assay: Microplate Alamar Blue MIC assay, isolate 4457; conditions: isolate 4457, rpoB-H′526′Y
[3] = test system: rifampin-resistant M. tuberculosis 20626 (rpoB-H′526′D); assay: Microplate Alamar Blue MIC assay, isolate 20626; conditions: isolate 20626, rpoB-H′526′D
[4] = test system: rifampin-resistant M. tuberculosis 10545 (rpoB-S′531′L); assay: Microplate Alamar Blue MIC assay, isolate 10545; conditions: isolate 10545, rpoB-S′531′L

For COC1C=COC2(C)Oc3c(C)c(O)c4c(c3C2=O)C2=NC3(CCN(c5ccc(F)cc5NC(=O)C(Cc5ccccc5)NC(=O)c5ccccc5F)CC3)NC2=C(NC(=O)C(C)=CC=CC(C)C(O)C(C)C(O)C(C)C(O)C1C)C4=O (stereo not shown), the “antibacterial activity rifampin-resistant M. tuberculosis 10571 (rpoB-D′516′V) MIC” value [1] was 0.040 µg/mL, the “antibacterial activity rifampin-resistant M. tuberculosis 4457 (rpoB-H′526′Y) MIC” value [2] was 0.20 µg/mL and the “antibacterial activity rifampin-resistant M. tuberculosis 20626 (rpoB-H′526′D) MIC” value [3] was 0.20 µg/mL. The “antibacterial activity rifampin-resistant M. tuberculosis 10545 (rpoB-S′531′L) MIC” value [4] was 0.20 µg/mL.
